Measured values from several laboratories, pooled; numbers as filed in NIAID ChemDB.

Common to all: tests in culture; organism: HIV-1; read by: p24 / ELISA; read-out: EC50

Neighbouring rows are from separate reports. ECn is the concentration giving n% inhibition of infection, replication or growth. An empty or dashed field is not shown.

smiles | cells | mutations | strain | value
CC(C)C1=C2[C@H]3CC[C@@H]4[C@@]5(C)CC[C@H](OC(=O)[C@H]6C[C@@H](C(=O)O)C6(C)C)C(C)(C)[C@@H]5CC[C@@]4(C)[C@]3(C)CC[C@@]2(NC(=O)C(C)(C)NC(=O)c2ccc(CN3CCOCC3)cc2)CC1=O | MT-2 |  | 92HT599 | <0.003 µM
CC(C)C1=C2[C@H]3CC[C@@H]4[C@@]5(C)CC[C@H](OC(=O)[C@H]6C[C@@H](C(=O)O)C6(C)C)C(C)(C)[C@@H]5CC[C@@]4(C)[C@]3(C)CC[C@@]2(CCNCc2ccc3nc[nH]c3c2)CC1=O | MT-2 |  | 92HT599 | <1 µM
CC(C)C1=C2[C@H]3CC[C@@H]4[C@@]5(C)CC[C@H](OC(=O)[C@H]6C[C@@H](C(=O)O)C6(C)C)C(C)(C)[C@@H]5CC[C@@]4(C)[C@]3(C)CC[C@@]2(NC(=O)C(C)(C)NC(=O)c2ccc(O[C@@H]3CCOC3)cc2)CC1=O | MT-2 |  | 92HT599 | <0.003 µM
CC1=C[C@H]2[C@@]3(O)[C@H](C)[C@@H](OC(=O)/C=C/c4ccccc4)[C@]4(O)[C@H]([C@@H]3C=C(COC(=O)/C=C/c3ccccc3)C[C@]2(O)C1=O)C4(C)C | C8166 |  | IIIB | 27.01 µM
COP(=O)(c1cc(C)cc(CCC#N)c1)c1c(C(N)=O)[nH]c2ccc(Cl)c(F)c12 | MT-4 | K103N | NL4-3 | 0.0014 µM
C=C(C)[C@@H]1CC[C@]2(NC[C@H]([C@@H](C)O)N3CCS(=O)(=O)CC3)CC[C@]3(C)[C@H](CC[C@@H]4[C@@]5(C)CC[C@H](OC(=O)C6CC(C(=O)O)C6(C)C)C(C)(C)[C@@H]5CC[C@]43C)[C@@H]12 | MT-4 |  | NL4-3 | <0.01 µM
CC(C)C1=C2[C@H]3CC[C@@H]4[C@@]5(C)CC[C@H](OC(=O)[C@H]6C[C@@H](C(=O)O)C6(C)C)C(C)(C)[C@@H]5CC[C@@]4(C)[C@]3(C)CC[C@@]2([C@@H](O)CNCC(C)(C)NC(=O)c2ccc3ccccc3c2)CC1=O | MT-2 |  | 92HT599 | <1 µM
CCCCCCCCCCCCCCCCCCOCCOP(=O)(O)CO[C@H](CO)Cn1cnc2c(=O)[nH]c(N)nc21 | PBMC | V75I F77L F116Y Q151M | NRTI-MDR | 0.061 µM
[2H]C(CN)(CNC(=O)c1ccc(Cl)cc1)NC(=O)C[C@@]12CC[C@]3(C)[C@H](CC[C@@H]4[C@@]5(C)CC[C@H](OC(=O)[C@H]6C[C@@H](C(=O)O)C6(C)C)C(C)(C)[C@@H]5CC[C@]43C)C1=C(C(C)C)C(=O)C2 | MT-2 |  | 92HT599 | <1 µM
CC(C)C1=C2[C@H]3CC[C@@H]4[C@@]5(C)CC[C@H](OC(=O)[C@H]6C[C@@H](C(=O)O)C6(C)C)C(C)(C)[C@@H]5CC[C@@]4(C)[C@]3(C)CC[C@@]2(NC(=O)C(C)(C)NC(=O)c2ccc(N3CCN(C)CC3)cc2)CC1=O | MT-2 |  | 92HT599 | <0.003 µM
CC1=C[C@H]2[C@@]3(O)[C@H](C)[C@@H](OC(=O)CCc4ccccc4)[C@]4(OC(=O)CCc5ccccc5)[C@H]([C@@H]3C=C(CO)C[C@]2(O)C1=O)C4(C)C | C8166 |  | IIIB | 0.0264 µM
Cc1nnc(-c2ccc(C(=O)NCC[C@@]34CC[C@]5(C)[C@H](CC[C@@H]6[C@@]7(C)CC[C@H](OC(=O)[C@H]8C[C@@H](C(=O)O)C8(C)C)C(C)(C)[C@@H]7CC[C@]65C)C3=C(C(C)C)C(=O)C4)cc2)o1 | MT-2 |  | 92HT599 | <1 µM
CCN1C(=O)NC(=O)C(C(C)C)C1CC1CC(C)CC(C#N)C1=O | C8166 |  | A17 | 1.57 µM
CC/C=C\C/C=C\C/C=C\C/C=C\C/C=C\CCCC(=O)O[C@@H]1[C@@H](C)[C@@]2(O)[C@@H](C=C(CO)C[C@]3(O)C(=O)C(C)=C[C@@H]23)[C@@H]2C(C)(C)[C@]12OC(C)=O | C8166 |  | IIIB | 0.0041 µM
CCCCCCCCCCCCCCCCCCOCCOP(=O)(O)CO[C@H](CO)Cn1cnc2c(N)ncnc21 | PBMC | K65R | NRTI-MDR | 0.024 µM
CC(C)C1=C2[C@H]3CC[C@@H]4[C@@]5(C)CC[C@H](OC(=O)[C@H]6C[C@@H](C(=O)O)C6(C)C)C(C)(C)[C@@H]5CC[C@@]4(C)[C@]3(C)CC[C@@]2(CC(=O)NCC2(N)CCC2)CC1=O | MT-2 |  | 92HT599 | <1 µM
CCCC(=O)O[C@@]12[C@H](OC(=O)/C=C/c3ccccc3)[C@@H](C)[C@@]3(O)[C@@H](C=C(COC(=O)/C=C/c4ccc5c(c4)OCO5)C[C@]4(O)C(=O)C(C)=C[C@@H]34)[C@@H]1C2(C)C | C8166 |  | IIIB | 0.6714 µM
COc1ccc(C(=O)NC(C)(C)CNC[C@H](O)[C@@]23CC[C@]4(C)[C@H](CC[C@@H]5[C@@]6(C)CC[C@H](OC(=O)[C@H]7C[C@@H](C(=O)O)C7(C)C)C(C)(C)[C@@H]6CC[C@]54C)C2=C(C(C)C)C(=O)C3)cc1 | MT-2 |  | 92HT599 | <1 µM
CCCCCCCCCCCCCCCCCCOCCOP(=O)(O)CO[C@H](CO)Cn1ccc(N)nc1=O | PBMC | M41L D67N K70R T215Y K219Q | NRTI-MDR | 0.012 µM
CC1([C@@H]2CC[C@]3(NC[C@@H](CO)N4CCS(=O)(=O)CC4)CC[C@]4(C)[C@H](CC[C@@H]5[C@@]6(C)CC[C@H](OC(=O)[C@H]7C[C@@H](C(=O)O)C7(C)C)C(C)(C)[C@@H]6CC[C@]54C)[C@@H]23)CC1 | MT-4 |  | NL4-3 | <0.01 µM
CC/C=C\C/C=C\C/C=C\C/C=C\C/C=C\CCCC(=O)O[C@@H]1[C@@H](C)[C@@]2(O)[C@@H](C=C(COC(C)=O)C[C@]3(O)C(=O)C(C)=C[C@@H]23)[C@@H]2C(C)(C)[C@]12O | C8166 |  | IIIB | 5.08 µM
Cc1cn([C@H]2C[C@H](N=[N+]=[N-])[C@@H](CO)O2)c(=O)[nH]c1=O | C8166 |  | MN | 0.0009 µg/mL
Cc1cn([C@H]2C[C@H](N=[N+]=[N-])[C@@H](CO)O2)c(=O)[nH]c1=O | C8166 |  | IIIB | 0.0054 µM
COc1cc(Cl)ccc1C(=O)NC(C)(C)C(=O)N[C@@]12CC[C@]3(C)[C@H](CC[C@@H]4[C@@]5(C)CC[C@H](OC(=O)[C@H]6C[C@@H](C(=O)O)C6(C)C)C(C)(C)[C@@H]5CC[C@]43C)C1=C(C(C)C)C(=O)C2 | MT-2 |  | 92HT599 | <0.003 µM
CC(=O)O[C@@]12[C@H](OC(=O)/C=C/c3ccc(Br)cc3)[C@@H](C)[C@@]3(O)[C@@H](C=C(CO)C[C@]4(O)C(=O)C(C)=C[C@@H]34)[C@@H]1C2(C)C | C8166 |  | IIIB | 0.0188 µM
CC1([C@@H]2CC[C@]3(NC[C@H](CO)N4CCS(=O)(=O)CC4)CC[C@]4(C)[C@H](CC[C@@H]5[C@@]6(C)CC[C@H](OC(=O)[C@H]7C[C@@H](C(=O)O)C7(C)C)C(C)(C)[C@@H]6CC[C@]54C)[C@@H]23)CC1 | MT-4 |  | NL4-3 | <0.01 µM
Cc1ccnc2c1NC(=O)c1cccnc1N2C1CC1 | TZM-bl | K103N | A17 | >10 µM
CC(C)S(=O)(=O)N1CCN([C@H](CN[C@]23CC[C@@H](C4(C)CC4)[C@@H]2[C@H]2CC[C@@H]4[C@@]5(C)CC[C@H](OC(=O)[C@H]6C[C@@H](C(=O)O)C6(C)C)C(C)(C)[C@@H]5CC[C@@]4(C)[C@]2(C)CC3)[C@@H](C)O)CC1 | MT-4 |  | NL4-3 | <0.01 µM
CC/C=C\C/C=C\C/C=C\C/C=C\C/C=C\C/C=C\CCC(=O)O[C@@H]1[C@@H](C)[C@@]2(O)[C@@H](C=C(CO)C[C@]3(O)C(=O)C(C)=C[C@@H]23)[C@@H]2C(C)(C)[C@]12OC(C)=O | C8166 |  | IIIB | 0.0083 µM
Cc1ccc(C(=O)NC(C)(C)CNCC[C@@]23CC[C@]4(C)[C@H](CC[C@@H]5[C@@]6(C)CC[C@H](OC(=O)[C@H]7C[C@@H](C(=O)O)C7(C)C)C(C)(C)[C@@H]6CC[C@]54C)C2=C(C(C)C)C(=O)C3)nc1 | MT-2 |  | 92HT599 | <1 µM
C[C@H](F)[C@@H](CN[C@]12CC[C@@H](C3(C)CC3)[C@@H]1[C@H]1CC[C@@H]3[C@@]4(C)CC[C@H](OC(=O)[C@H]5C[C@@H](C(=O)O)C5(C)C)C(C)(C)[C@@H]4CC[C@@]3(C)[C@]1(C)CC2)N1CCS(=O)(=O)CC1 | MT-2 |  | 92HT599 | >0.02 µM

The first 3 rows once more:

| smiles | cells | mutations | strain | value |
|---|---|---|---|---|
| CC(C)C1=C2[C@H]3CC[C@@H]4[C@@]5(C)CC[C@H](OC(=O)[C@H]6C[C@@H](C(=O)O)C6(C)C)C(C)(C)[C@@H]5CC[C@@]4(C)[C@]3(C)CC[C@@]2(NC(=O)C(C)(C)NC(=O)c2ccc(CN3CCOCC3)cc2)CC1=O | MT-2 |  | 92HT599 | <0.003 µM |
| CC(C)C1=C2[C@H]3CC[C@@H]4[C@@]5(C)CC[C@H](OC(=O)[C@H]6C[C@@H](C(=O)O)C6(C)C)C(C)(C)[C@@H]5CC[C@@]4(C)[C@]3(C)CC[C@@]2(CCNCc2ccc3nc[nH]c3c2)CC1=O | MT-2 |  | 92HT599 | <1 µM |
| CC(C)C1=C2[C@H]3CC[C@@H]4[C@@]5(C)CC[C@H](OC(=O)[C@H]6C[C@@H](C(=O)O)C6(C)C)C(C)(C)[C@@H]5CC[C@@]4(C)[C@]3(C)CC[C@@]2(NC(=O)C(C)(C)NC(=O)c2ccc(O[C@@H]3CCOC3)cc2)CC1=O | MT-2 |  | 92HT599 | <0.003 µM |